In PubChem BioAssay AID1035470 (Broad Institute, 2014) one finds activity change, negative = inhibition data, which are given here for one compound.

The entries are a selection whose mix differs from that of the whole data set. Results with a measured potency or affinity are listed apart. Records with an inconclusive call do not appear. Activity calls are given as the source filed them.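 Rule for the calls: active = compound lowering the normal-ribosome reporter at least twice as much as the humanized-ribosome reporter, growth loss under a set limit; inconclusive = no clear call, values can overlap the other calls; inactive = the rest.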

The assay in a line: E. coli strain growth, wild-type against G2058 humanized RFP mutant – G2058 mutant RFP vs wild-type GFP, cherry-pick, two tests, dose response (AID 1035470). To be noted: E. coli WT-GFP vs G2058-humanized RFP, fluorescence, 24 h; at 50 µM (top of the series).
For `O=[N+]([O-])c1cc([N+](=O)[O-])c(Nc2nnnn2CCO)c([N+](=O)[O-])c1`, the activity change, negative = inhibition was inactive: -2.05.
